Results of unrelated studies side by side (data: NIAID ChemDB).

All rows: tests in culture; agent: Herpes simplex virus 1

a–b is a range or a potency band. ECn is the concentration giving n% inhibition of infection, replication or growth. An empty or dashed field is not shown. Lines come from different laboratories, so protocols vary.

| structure | cell line | endpoint | strain | read by | result |
|---|---|---|---|---|---|
| COc1cc(O)c2c(=O)cc(-c3ccc(OC)c(-c4c(O)cc(O)c5c(=O)cc(-c6ccc(O)cc6)oc45)c3)oc2c1 | HeLa | EC50 | HF | plaque count | 0.91 µg/mL |
| COc1ccc(OC(=O)P(=O)(O)O)cc1 | VERO | EC50 | C42 | plaque count | 500 µM |
| O=c1c2cccnc2[se]n1N(c1ccccc1)c1ccccc1 |  | MIC |  |  | 1 µg/mL |
| Cc1cn(CC(CO)OCP(=O)(O)O)c(=O)[nH]c1=O | Primary rabbit kidney cells | EC50 | (TK-) 2 strains | cytopathic effect | >400 µg/mL |
| O=c1[nH][se]c2ccccc12 |  | MIC |  |  | 1 µg/mL |
| Nc1ccn(C[C@@H](CO)OCP(=O)(O)O)c(=O)n1 | HEL | EC50 | KOS ACV-resistant | cytopathic effect | 0.29 µg/mL |
| Nc1c2c(-c3ccc(Br)cc3)c3c(=O)[nH]c(=O)[nH]c3nc2nc(=O)n1-c1ccccc1 | VERO | EC50 |  | plaque count | 30 µg/mL |
| Nc1nc(N)c2ncn(CCOCP(=O)(O)O)c2n1 | HEL | EC50 | KOS ACV-resistant | cytopathic effect | 5.7 µg/mL |
| O=c1c2cccnc2[se]n1C1CCCCC1 |  | MIC |  |  | 0.8 µg/mL |
| C#Cc1c(C(N)=O)ncn1[C@@H]1O[C@H](CO)[C@@H](O)[C@H]1O | PRK | EC50 | KOS | cytopathic effect | >400 µg/mL |
| CCCCC(=O)SCCOP(=O)(OCCOCn1cnc2c(=O)[nH]c(N)cc21)OCCSC(=O)CCCC |  | EC50 |  |  | 10 µM |
| Nc1ncnc2c1ncn2OCC/C=C\P(=O)(O)O | MRC-5 | EC50 | SC16 | cytopathic effect | >300 µM |
| Nc1ncnc2c1c(Br)cn2[C@@H]1O[C@H](CO)[C@@H](O)[C@H]1O | PRK/E6SM | EC50 | KOS | cytopathic effect | >0.2 µg/mL |
| O=C(O)P(=O)(O)O | VERO | EC50 |  | plaque count | 45 µM |
| COc1cc(O)c(CC=C(C)C)c(O)c1C(=O)/C=C/c1ccc(O)cc1 | VERO | EC50 |  | cytopathic effect | 2.7 µg/mL |
| Nc1nc(N)c2ncn(CC(CO)OCP(=O)(O)O)c2n1 | Primary rabbit kidney cells | EC50 | 3 strains | cytopathic effect | 10 µg/mL |
| N#Cc1c(-c2ccc(Br)cc2)c2c(=O)[nH]c(=O)[nH]c2[nH]c1=O | VERO | EC50 |  | plaque count | 40 µg/mL |
| N#Cc1cn([C@@H]2O[C@H](CO)[C@@H](O)[C@@H]2O)c2ncnc(N)c12 | BSC-1 | EC50 | S-148 | plaque count | 38 µM |
| O=C(O)P(=O)(O)Oc1ccccc1 | VERO | EC50 |  | plaque count | 15 µM |
| C/C=C1\[C@H](OC2O[C@H](CO)[C@@H](O)[C@H](O)[C@H]2O)OC=C(C(=O)OC)[C@H]1CC(=O)OC | VERO | EC50 | 15577 | cytopathic effect | 83.3 µM |
| Nc1nc(N)c2ncn([C@@H]3S[C@H](CO)[C@H](O)[C@@H]3F)c2n1 |  | EC50 |  |  | 0.0057 µg/mL |
| CCOC(=O)P(=O)(O)OC[C@H]1S[C@@H](n2cc(CC)c(=O)[nH]c2=O)C[C@@H]1O | VERO | EC50 | L2/R acyclovir-resistant | cytopathic effect | 24.5 µM |
| Cc1cn([C@H]2C[C@H](O)[C@@H](CO)O2)c(=O)[nH]c1=O | RPMI8226 | EC50 | KOS | plaque count | >413 µM |
| Nc1ncnc2c1ncn2[C@H]1C[C@@H](O)[C@@H](CO)O1 | PRK/E6SM | EC50 | KOS | cytopathic effect | 150 µg/mL |
| O=C(O)P(=O)(O)O | HEL | EC50 | KOS HPMPC-resistant | cytopathic effect | 14.6 µg/mL |
| O=c1[nH]c(=S)n([C@@H]2O[C@H](CO)[C@@H](O)[C@@H]2O)cc1Br | MRC-5 | EC50 | KOS | plaque count | 11.8 µM |
| C[C@H]1C[C@@H](n2cnc3c(N)ncnc32)[C@H](O)[C@@H]1O | E6SM | EC50 | KOS | cytopathic effect | 300 µg/mL |
| Nc1nc2c(ncn2CC/C=C/P(=O)(O)O)c(=O)[nH]1 | MRC-5 | EC50 | SC16 | cytopathic effect | >300 µM |
| O=c1c2ccccc2[se]n1-c1ccccc1 |  | MIC |  |  | 4 µg/mL |
| CCCC#Cc1c(C(N)=O)ncn1[C@@H]1O[C@H](CO)[C@@H](O)[C@H]1O | PRK | EC50 | KOS | cytopathic effect | >400 µg/mL |
| CCC1[C@H](OC2O[C@H](CO)[C@@H](O)[C@H](O)[C@H]2O)OC=C(C(=O)O)[C@H]1CC(=O)OCCc1ccc(O)cc1 | VERO | EC50 | 15577 | cytopathic effect | >250 µM |
| CC#CSC[C@H]1O[C@@H](n2cnc3c(N)ncnc32)[C@H](O)[C@@H]1O | E6SM | EC50 | VMW1837 (TK-) | cytopathic effect | 250 µM |
| CCCCCCCCCCCCCCCCCCOC[C@H](COP(=O)(O)C(=O)O)OCc1ccccc1 | MRC-5 | EC50 | WILD TYPE |  | 14.8 µM |
| O=c1c2cccnc2[se]n1-c1ccccc1 |  | MIC |  |  | 0.6 µg/mL |
| CCOC(=O)P(=O)(O)OCC | VERO | EC50 |  | plaque count | >500 µM |
| N#Cc1c(NC(=O)Nc2ccccc2)nc2[nH]c(=O)[nH]c(=O)c2c1-c1ccc(Cl)cc1 | VERO | EC50 |  | plaque count | 18 µg/mL |
| Nc1nc(N)c2ncn(CCOCP(=O)(O)O)c2n1 | Primary rabbit kidney cells | EC50 | (TK-) 2 strains | cytopathic effect | 1 µg/mL |
| COc1ccc(-c2c(C#N)c(NC(=S)Nc3ccccc3)nc3[nH]c(=O)[nH]c(=O)c23)c(OC)c1 | VERO | EC50 |  | plaque count | 12 µg/mL |
| Nc1ncnc2c1ncn2C[C@H]1COP(=O)(O)CO1 | Primary rabbit kidney cells | EC50 | (TK-) 2 strains | cytopathic effect | 2 µg/mL |
| NC(=O)c1cn([C@@H]2O[C@H](CO)[C@@H](O)[C@@H]2O)c2ncnc(N)c12 | BSC-1 | EC50 | S-148 |  | 5.1 µM |
| CCOP(=O)(OCC)C(=O)OC | VERO | EC50 |  | plaque count | >500 µM |
| Nc1nc2c(ncn2[C@@H]2C=C[C@H](CO)CC2)c(=O)[nH]1 |  | EC50 | OST (TK-) |  | 3.2 µg/mL |
| CC(C)(C)n1[se]c2ncccc2c1=O |  | MIC |  |  | 1 µg/mL |
| O=c1[nH]c(=O)n([C@H]2C[C@H](O)[C@@H](CO)O2)cc1F | MRC-5 | EC50 | TK- | plaque count | >385 µM |
| N#Cc1c(N)nc2[nH]c(=O)[nH]c(=O)c2c1-c1ccc(Br)cc1 | VERO | EC50 |  | plaque count | 40 µg/mL |
| O=c1[nH]c(=S)n([C@H]2C[C@H](O)[C@@H](CO)O2)cc1F | RPMI8226 | EC50 | KOS | plaque count | 1.46 µM |
| Nc1ncnc2c1ncn2[C@@H]1O[C@H](CO)[C@@H](O)[C@@H]1O | HEL | EC50 | KOS ACV-resistant | cytopathic effect | 12.3 µg/mL |
| O=c1[nH][se]c2ncccc12 |  | MIC |  |  | 0.4 µg/mL |
| O=c1[nH]c(=O)n([C@H]2C[C@H](O)[C@@H](CO)O2)c[c]1[Hg+] | HELA TK- | EC50 | KOS | virus yield | 0.448 µg/mL |
| Nc1ncc2c(ncn2COC(CO)CO)n1 | HEL | EC50 | KOS HPMPC-resistant | cytopathic effect | 0.26 µg/mL |
| O=c1[nH]c(=S)n([C@@H]2O[C@H](CO)[C@@H](O)[C@@H]2O)cc1I | RPMI8226 | EC50 | KOS | plaque count | 18.9 µM |
| Nc1nc2c(ncn2CC/C=C\P(=O)(O)O)c(=O)[nH]1 | MRC-5 | EC50 | SC16 | cytopathic effect | >300 µM |
| O=c1[nH]c(=O)n([C@H]2C[C@H](O)[C@@H](CO)O2)c[c]1[Hg+].O[C@H](C[S-])[C@H](O)CS | KB | EC50 | KOS | virus yield | 1.204 µg/mL |
| Nc1nc(=O)n([C@@H]2O[C@H](CO)[C@@H](O)[C@@H]2F)cc1I | HEL | EC50 | KOS | cytopathic effect | 0.04 µg/mL |
| O=c1ccn([C@H]2C[C@H](O)[C@@H](CO)O2)c(=S)[nH]1 | MRC-5 | EC50 | KOS | plaque count | 8.64 µM |
| Cn1[se]c2ncccc2c1=O |  | MIC |  |  | 0.6 µg/mL |
| C[C@@H](Oc1ccc(Cl)cc1)C(=O)O | HeLa | EC50 | TYLER | plaque count | 800 µM |
| Nc1ncnc2c1ccn2[C@@H]1O[C@H](CO)[C@@H](O)[C@H]1O | KB | EC50 |  | plaque count | 320 µM |
| C[C@H]1O[C@@H](n2cc(C(N)=S)c3c(N)ncnc32)[C@H](O)[C@@H]1O |  | EC50 |  | ELISA | 2.5 µM |
| COC(=O)C(N)CCSC[C@H]1O[C@@H](n2ccc3c(N)ncnc32)[C@H](O)[C@@H]1O | PRK/E6SM | EC50 | KOS | cytopathic effect | 100 µg/mL |
| O=C(Oc1ccccc1)P(=O)(O)O | VERO | EC50 |  | plaque count | 60 µM |
| NC(=O)c1ncn([C@@H]2O[C@H](CO)[C@@H](O)[C@H]2O)n1 | PRK | EC50 | KOS | cytopathic effect | >400 µg/mL |
| Nc1nc2c(ncn2C=C2CC2CO)c(=O)[nH]1 |  | EC50 |  | plaque count | 10–100 µM |
| NC(CS)C(=O)O.O=c1[nH]c(=O)n([C@H]2C[C@H](O)[C@@H](CO)O2)c[c]1[Hg+] | KB | EC50 | KOS | virus yield | 0.899 µg/mL |
| CC1=C(C)[C@](CO)(c2ccccc2)C[C@H]1n1ccc(N)nc1=O | VERO | EC50 |  | cytopathic effect | >100 µg/mL |
| O=c1[nH]c(=S)n([C@H]2C[C@H](O)[C@@H](CO)O2)cc1I | MRC-5 | EC50 | KOS | plaque count | <0.43 µM |
| CC1=C(C)[C@](CO)(c2ccccc2)C[C@H]1n1cnc2c(N)ncnc21 | VERO | EC50 |  | cytopathic effect | 78.5 µg/mL |
| NC(=O)c1cn([C@H]2C[C@H](O)[C@@H](CO)O2)c2ncnc(N)c12 | BSC-1 | EC50 | S-148 |  | >34 µM |
| Nc1nccc2c1ncn2[C@@H]1C=C(CO)[C@@H](O)[C@H]1O | PRK | EC50 | KOS | cytopathic effect | >400 µg/mL |

5 of the rows above, restated:

structure,cell line,endpoint,strain,read by,result
O=c1[nH]c(=S)n([C@H]2C[C@H](O)[C@@H](CO)O2)cc1F,RPMI8226,EC50,KOS,plaque count,1.46 µM
Nc1nc(N)c2ncn(CCOCP(=O)(O)O)c2n1,HEL,EC50,KOS ACV-resistant,cytopathic effect,5.7 µg/mL
O=c1c2cccnc2[se]n1-c1ccccc1,,MIC,,,0.6 µg/mL
NC(=O)c1ncn([C@@H]2O[C@H](CO)[C@@H](O)[C@H]2O)n1,PRK,EC50,KOS,cytopathic effect,>400 µg/mL
O=c1[nH][se]c2ncccc12,,MIC,,,0.4 µg/mL